Experiment: Inhibition of wild type HIV-1 3B reverse transcriptase infected in human MT4 cells assessed as inhibition of viral replication after 5 days by cell titer glo based luciferase reporter gene assay
Settings: Human immunodeficiency virus 1, 3B, MT4, 120 h

`Cc1cc(C#N)cc(C)c1Oc1nc(Nc2ccc(C#N)cc2)nc(N)c1Br` [ETRAVIRINE] gave an EC50 of 2 nM.

Reference: ChEMBL document CHEMBL3865796, “Novel (2,6-difluorophenyl)(2-(phenylamino)pyrimidin-4-yl)methanones with restricted conformation as potent non-nucleoside reverse transcriptase inhibitors against HIV-1” (Eur J Med Chem, 2016)
